Share of PSTVd loop 6 variants by leaf site

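A pool of all variants was put on leaves of three Nicotiana benthamiana plants. Progeny were sequenced from the inoculated region (day 5), the margin of the inoculated leaf (day 10) and systemic leaves (day 12).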

The pool varies loop 6 of the PSTVd intermediate strain in the pattern UNNNCGNNNG; wild type is UGACCGCGAG (upper and lower strand joined, each 5' to 3', the first 5 letters being the upper strand, closing pairs included).

Numbers give reads per thousand; 0 = not seen among the reads, higher = more abundant.
Each site shows the three plants.
"Pool" is the share in the plasmid pool used as inoculum, on the same scale.
The inoculated region was read from the minus strand, the other sites from the plus strand.

| # | sequence | pool | inoculated region | leaf margin | systemic leaves |
|---|---|---|---|---|---|
| 1 | UAAGCGACAG | 0.275 | 0.104 / 0.0719 / 0.0738 | 0 / 0 / 0.0232 | 0 / 0 / 0 |
| 2 | UAAGCGGACG | 0.209 | 0.643 / 0.772 / 0.498 | 0.0828 / 0.0504 / 0.116 | 0 / 0.0808 / 0.0205 |
| 3 | UACCCGAAGG | 0.118 | 0.156 / 0.108 / 0.129 | 0 / 0 / 0.0232 | 0 / 0 / 0 |
| 4 | UACGCGCUAG | 0.0784 | 0.243 / 0.0719 / 0.0369 | 0 / 0 / 0.0232 | 0 / 0 / 0 |
| 5 | UACGCGUGGG | 0.105 | 0.156 / 0.0898 / 0.0738 | 0.0276 / 0 / 0.0232 | 0 / 0 / 0 |
| 6 | UAGACGUACG | 0.209 | 0.104 / 0.0898 / 0.0738 | 0 / 0 / 0.0232 | 0 / 0 / 0 |
| 7 | UAGACGUAGG | 0.183 | 0.0869 / 0.108 / 0.0369 | 0 / 0 / 0.0232 | 0 / 0 / 0 |
| 8 | UAGACGUGUG | 0.288 | 0.174 / 0.126 / 0.0922 | 0 / 0 / 0 | 0 / 0 / 0 |
| 9 | UAGGCGGUGG | 0.248 | 0.139 / 0.108 / 0.111 | 0 / 0 / 0 | 0 / 0 / 0 |
| 10 | UAGUCGGAGG | 0.209 | 0.0695 / 0.0898 / 0.0922 | 0.0276 / 0 / 0 | 0 / 0 / 0 |
| 11 | UAUACGAAAG | 0.118 | 0.156 / 0.0180 / 0.0553 | 0 / 0 / 0.0232 | 0 / 0 / 0 |
| 12 | UAUACGGGGG | 0.222 | 0.174 / 0.0539 / 0.0553 | 0 / 0 / 0 | 0 / 0 / 0 |
| 13 | UAUGCGGUAG | 0.183 | 0.122 / 0.0719 / 0.0184 | 0 / 0 / 0 | 0 / 0 / 0 |
| 14 | UAUGCGUAAG | 0.144 | 0.104 / 0.0539 / 0.129 | 0 / 0 / 0 | 0 / 0 / 0 |
| 15 | UAUUCGAUGG | 0.484 | 0.0869 / 0.0359 / 0.0738 | 0 / 0 / 0 | 0 / 0 / 0.0205 |
| 16 | UAUUCGCGUG | 0.170 | 0.139 / 0.108 / 0.0553 | 0 / 0 / 0.0232 | 0 / 0 / 0 |
| 17 | UCAACGCGAG | 0.157 | 0.313 / 0.144 / 0.0922 | 0.248 / 0.101 / 0.0464 | 0 / 0 / 0 |
| 18 | UCAGCGCGGG | 0.222 | 0.104 / 0.0719 / 0.0369 | 0 / 0 / 0 | 0 / 0 / 0 |
| 19 | UCAUCGAGGG | 0.196 | 0.139 / 0.0359 / 0.111 | 0 / 0 / 0 | 0 / 0 / 0 |
| 20 | UCCACGCCAG | 0.118 | 0.139 / 0.108 / 0.0922 | 0.0276 / 0 / 0 | 0 / 0 / 0 |
| 21 | UCCCCGCUGG | 0.170 | 0.104 / 0.108 / 0.0553 | 0.0276 / 0 / 0 | 0 / 0 / 0 |
| 22 | UCCGCGGUUG | 0.235 | 0.0348 / 0.126 / 0.0922 | 0 / 0 / 0 | 0 / 0 / 0.0205 |
| 23 | UCCGCGUCUG | 0.261 | 0.139 / 0.0898 / 0.0553 | 0.0276 / 0.0252 / 0 | 0 / 0 / 0 |
| 24 | UCCUCGAUAG | 0.235 | 0.174 / 0.126 / 0.0738 | 0 / 0 / 0.232 | 0 / 0 / 0 |
| 25 | UCCUCGCGAG | 0.196 | 0.174 / 0.269 / 0.184 | 0.110 / 0.504 / 0.0232 | 0 / 0.0202 / 0 |
| 26 | UCGACGACGG | 0.105 | 0.156 / 0.0539 / 0.0553 | 0 / 0 / 0 | 0 / 0 / 0 |
| 27 | UCGCCGCUGG | 0.131 | 0.174 / 0.0359 / 0.0922 | 0 / 0 / 0 | 0 / 0 / 0 |
| 28 | UCGGCGAAUG | 0.340 | 0.156 / 0.0898 / 0.0738 | 0.0552 / 0 / 0.0232 | 0 / 0 / 0.0205 |
| 29 | UCGUCGUCGG | 0.235 | 0.0869 / 0.0719 / 0.0184 | 0 / 0 / 0 | 0 / 0 / 0 |
| 30 | UCUACGUGAG | 0.209 | 0.156 / 0.0898 / 0.0922 | 0.0552 / 0 / 0.0232 | 0 / 0 / 0 |
| 31 | UCUCCGAAAG | 0.0915 | 0.174 / 0.126 / 0.0553 | 0 / 0 / 0 | 0 / 0 / 0 |
| 32 | UCUGCGACUG | 0.405 | 0.0521 / 0.108 / 0.0369 | 0.0276 / 0 / 0 | 0 / 0 / 0 |
| 33 | UCUGCGGUCG | 0.261 | 0.0695 / 0.0180 / 0.0922 | 0 / 0 / 0 | 0 / 0 / 0 |
| 34 | UGAACGUGAG | 0.222 | 0.678 / 3.84 / 6.10 | 1.35 / 1.61 / 1.23 | 0.144 / 0.626 / 0.595 |
| 35 | UGAGCGGAAG | 0.157 | 0.747 / 0.701 / 0.424 | 0.0552 / 0.126 / 0.139 | 0 / 0 / 0.0410 |
| 36 | UGAGCUGUGG | 0.0131 | 0 / 0 / 0 | 0 / 0 / 0 | 0 / 0 / 0 |
| 37 | UGCCCGGGAG | 0.196 | 0.191 / 0.0719 / 0.129 | 0 / 0.0252 / 0.0232 | 0 / 0 / 0 |
| 38 | UGCGCGGUAG | 0.275 | 0.608 / 0.593 / 0.535 | 0 / 0.0757 / 0.162 | 0 / 0 / 0 |
| 39 | UGCGCGUCAG | 0.275 | 0.122 / 0.108 / 0.0553 | 0 / 0 / 0 | 0 / 0.0202 / 0 |
| 40 | UGCUCGCUCG | 0.288 | 0.174 / 0.0539 / 0.0738 | 0.0276 / 0 / 0.0464 | 0 / 0 / 0 |
| 41 | UGGACGCCUG | 0.340 | 0.139 / 0.198 / 0 | 0 / 0 / 0 | 0 / 0 / 0 |
| 42 | UGGGCGCACG | 0.196 | 0.0695 / 0.0359 / 0.0922 | 0.0276 / 0 / 0 | 0 / 0 / 0 |
| 43 | UGGUCGAUCG | 0.288 | 0.174 / 0.0359 / 0.0184 | 0.0276 / 0 / 0 | 0 / 0 / 0 |
| 44 | UGGUCGCACG | 0.340 | 0.139 / 0.144 / 0.0922 | 0 / 0 / 0 | 0 / 0 / 0 |
| 45 | UGUUCGAUAG | 0.301 | 0.0869 / 0.126 / 0.0738 | 0.0276 / 0 / 0.209 | 0 / 0 / 0 |
| 46 | UGUUCGUCAG | 0.458 | 0.0869 / 0.108 / 0.0738 | 0.0276 / 0 / 0 | 0 / 0 / 0.0410 |
| 47 | UGUUCGUCGU | 0.0131 | 0 / 0 / 0 | 0 / 0 / 0 | 0 / 0 / 0 |
| 48 | UUAACGAAGG | 0.131 | 0.0695 / 0.144 / 0.0553 | 0 / 0 / 0.0232 | 0 / 0 / 0 |
| 49 | UUACCGCCUG | 0.209 | 0.226 / 0.216 / 0.166 | 0.0552 / 0 / 0.0464 | 0 / 0 / 0 |
| 50 | UUACCGCGGG | 0.131 | 0.0348 / 0.144 / 0.221 | 0.0276 / 0 / 0.0464 | 0 / 0.101 / 0 |
| 51 | UUAUCUCUGG | 0.0131 | 0 / 0 / 0 | 0 / 0 / 0 | 0 / 0 / 0 |
| 52 | UUCACGAAAG | 0.196 | 0.0521 / 0.0359 / 0.0553 | 0 / 0 / 0.0464 | 0 / 0 / 0 |
| 53 | UUCACGUCCG | 0.288 | 0.139 / 0.0898 / 0.111 | 0 / 0 / 0.0232 | 0 / 0 / 0 |
| 54 | UUCCCGAACG | 0.288 | 0.0695 / 0.108 / 0.0369 | 0 / 0 / 0 | 0 / 0 / 0 |
| 55 | UUCCCGCACG | 0.301 | 0.156 / 0.0898 / 0.0738 | 0 / 0 / 0.0232 | 0 / 0 / 0 |
| 56 | UUCUCUAUAG | 0.0131 | 0 / 0 / 0 | 0 / 0 / 0 | 0 / 0 / 0 |
| 57 | UUGCCGCUAG | 0.157 | 0.0521 / 0.144 / 0.129 | 0 / 0 / 0.0232 | 0 / 0 / 0 |
| 58 | UUGGCGUUAG | 0.654 | 0.139 / 0.144 / 0.0922 | 0 / 0 / 0 | 0 / 0 / 0 |
| 59 | UUUACGACCG | 0.170 | 0.139 / 0.0719 / 0.0553 | 0 / 0 / 0 | 0 / 0 / 0 |
| 60 | UUUACGCGAU | 0.0131 | 0 / 0.108 / 0.0738 | 0.0276 / 0 / 0.0232 | 0 / 0 / 0 |
| 61 | UUUGCGCGCG | 0.261 | 0.0695 / 0.0898 / 0.0922 | 0.0276 / 0 / 0.0232 | 0 / 0 / 0 |

For reference, wild type rose from 20.7 per thousand in the pool to 195, 198, 203 (inoculated region), 629, 591, 734 (leaf margin) and 942, 870, 868 (systemic leaves).
The authors trace changes outside the varied positions to PCR and sequencing errors or to mutation in the plant; presence does not show that a variant is infectious alone.
With 36,220-57,551 reads a sample, very low values are single reads.

The measurements come from Wu et al. 2024 (doi:10.1371/journal.ppat.1012142).